We go through 19 substances from patent US20260240976A1, “T[…] VACCINES BASED ON VALIDATED TARGET EPITOPES” (Deutsches Krebsforschungszentrum Stiftung des öffentlichen …, priority 2023, published 2026).

The amount applied is not stated for every result.

The subject of the series is HPV16-positive cells. Kind of series: HLA immunoprecipitation and LC-MS of HLA-presented peptides. It is filed as cell-based, human. Set-up: key: +: presentation: HLA-presentation of the peptide by HPV16-positive cells shown by MS; +*: *highlights data from published resources.

With “2 (HGDTPTLHEY; Human papillomavirus 16) [compound 2]”, the “presentation: HLA-presentation of the peptide by HPV16-positive cells shown by MS” value (“presentation: HLA-presentation” for short) (HLA restriction A01) was “+”. For the substance “18 (RTLEDLLMGT; Human papillomavirus 16) [compound 18]”, the “presentation: HLA-presentation” value (HLA restriction A02) is reported as “+”. For the substance “53 (CVYCKQQLLR; Human papillomavirus 16) [compound 53]”, the “presentation: HLA-presentation” value is recorded as “+” (HLA restriction A03) and “+” (HLA restriction A11).

For “56 (IILECVYCK; Human papillomavirus 16) [compound 56]”, for the setting “HLA restriction A11”, the “presentation: HLA-presentation” value is on record as “+”. Regarding “57 (HLDKKQRFH; Human papillomavirus 16) [compound 57]”, where the note is “HLA restriction A03”, the “presentation: HLA-presentation” value was “+”. In the case of “80 (VYCKQQLL; Human papillomavirus 16) [compound 80]”, the “presentation: HLA-presentation” value (HLA restriction A24) is listed as “+”. Consider “81 (RAHYNIVTF; Human papillomavirus 16) [compound 81]”, for which the “presentation: HLA-presentation” value by setting is: (HLA restriction A24) “+”; (HLA restriction B07) “+”; (HLA restriction B15) “+”.

Regarding “96 (AHYNIVTF; Human papillomavirus 16) [compound 96]”, the “presentation: HLA-presentation” value (HLA restriction A24) is listed as “+”. Consider “97 (RPRKLPQL; Human papillomavirus 16) [compound 97]”, for which the “presentation: HLA-presentation” value (HLA restriction B07) is “+”. Still for that read-out and setting: in the case of “98 (TPTLHEYML; Human papillomavirus 16) [compound 98]” it was “+”. On to “107 (KQQLLRREVY; Human papillomavirus 16) [compound 107]”, for which the “presentation: HLA-presentation” value (HLA restriction B15) is listed as “+”.

As for “108 (AFRDLCIVY; Human papillomavirus 16) [compound 108]”, the “presentation: HLA-presentation” value (HLA restriction B15) is reported as “+”. The same measure, in the same setting: in the case of “109 (LQPETTDLY; Human papillomavirus 16) [compound 109]” it was “+”; in that of “110 (GQAEPDRAHY; Human papillomavirus 16) [compound 110]”, “+”. On the same count and under the same terms, the entry for “112 (SVYGTTLEQQY; Human papillomavirus 16) [compound 112]” is “+”; for “113 (LQPETTDLYC; Human papillomavirus 16) [compound 113]” it is “+”; for “114 (LQPETTDLYCY; Human papillomavirus 16) [compound 114]” it is “+”.

Turning to “140 (RPGKLPQL; Human papillomavirus 16) [compound 140]”, the “presentation: HLA-presentation” value (HLA restriction B07) is on record as “+”. In the case of “144 (AHYNIVTF; Human papillomavirus 16) [compound 144]”, for the setting “HLA restriction B15”, the “presentation: HLA-presentation” value is “+”.
